From ChEMBL document CHEMBL5505957 (Eur J Med Chem, 2024) come the findings set out here.

This series can be described thus: Selectivity index, ratio of IC50 for cytotoxicity against MDCK cells to IC50 for Inhibition of Influenza A virus H1N1 neuraminidase. As to conditions: dog.

On to `CC(=O)O[C@H]1[C@H](OCc2cn(CC3=NCCS3)nn2)OC[C@@H](OC(C)=O)[C@H]1OC(C)=O`, for which the Ratio IC50 was 184.
